The target of this assay is EBOV GPΔTM Mayinga; residues 18–650 (wild type) (Ebola virus (EBOV), Mayinga, UniProt Q05320). The assay can be described thus: ELISA. To be noted: both partners purified. Background: An ELISA detects its analyte on a solid surface through an enzyme-linked reagent.

B1: FVM04 (antibody, V domains shown)
VH: EVQLVQSGGGLVQPGGSMRLSCEASGLSLSDYFMHWVRQAQGKGLEWIGLIQTKAFTYKTEYPAAVKGRFTISRDDSKNTLYLQMSSLKPEDTALYYCIAVTPDFYYWGQGVLVTVSS
VL: DVVMTQSPSFLSASVGDRVTITCRASQDITINLNWFQHKPGKAPKRLIYVASRLERGVPSRFSGSGSGTEFTLTISSLQPEDFATYYCQQYNNYPLTFGPGTKLDIK
Regarding B1, the binding result is recorded as “binds”.

The values above are taken from PMC6328579, “Post-exposure immunotherapy for two ebolaviruses and Marburg virus in nonhuman primates” (Nature Communications, 2019).
